# Percent effect of library compounds

Measurements from “University of Dundee, Small-Polar-MMV Screening Library” (2021), ChEMBL document CHEMBL3988442.

Mtb glucose medium: 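Phenotypic screen: M. tuberculosis growth, glucose 7H9 medium, 3 days; the read-out is not stated. Tested at 50 µM. The record gives no direction; compounds that gave an IC50 in retests scored well above the rest, so higher reads as more growth inhibition. About 69,000 compounds were tested under these conditions; 1.1% (about 760) showed 50% or more at least once.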
Mtb cholesterol medium: 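Growth of Mycobacterium tuberculosis over 4 days (cholesterol / DPPC medium with tyloxapol); the read-out is not stated. Tested at 50 µM. Direction is inferred from retests: higher values go with more growth inhibition. Size under these conditions: about 69,000 compounds, about 370 of them at 50% or above in at least one test.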

The filed quantity is “Percent Effect” (%). The controls that fix the scale are not given in the record; negative values are as filed. Many other results are left out here, so strong results are more common than in the screen. Two or more numbers in one place are separate tests of the same structure; such repeats can differ widely.

* Cc1nccc(-c2cccc(-c3ccn(CC4CCNC4)n3)c2)n1 (stereo not shown) | Mtb glucose medium: 14.04%; Mtb cholesterol medium: 6.051%
* CN(Cc1nc(N)c2ccccc2n1)CC1CCCN1c1cccnn1 (stereo not shown) | Mtb glucose medium: 10.42%
* CCOc1ccc(C(=O)CC(SC2CCCCC2)C(=O)O)cc1 (stereo not shown) | Mtb glucose medium: 2.842% & 0.3932%; Mtb cholesterol medium: -4.058%
* CN1CCN(C(=O)C2CCN(c3cccnn3)C2)CC1 (stereo not shown) | Mtb glucose medium: -12.48%
* Clc1ccc(C2(CNC3=NCCN3)CC2)cc1.I | Mtb glucose medium: 32.26%
* CCc1nn(C)c(Cl)c1CN1CCN(c2ccc(C(N)=O)cn2)CC1 | Mtb glucose medium: 70.23% & 6.797%
* [H][C@]12CC[C@]([H])(CN(Cc3ccc(-n4cccn4)cc3)C1)N(CCC)C2 | Mtb glucose medium: 81.87%; Mtb cholesterol medium: 67.49%
* CC(=O)Nc1ccc(CNC2CCCSC2)cc1 (stereo not shown) | Mtb glucose medium: 2.392%; Mtb cholesterol medium: -15.08%
* Cc1[nH]ncc1C(=O)NCC(CO)Cc1ccc(Cl)cc1 (stereo not shown) | Mtb glucose medium: -5.282% & 0.6228%
* CC(C)c1cc(N(C)Cc2noc(C3CCCC3)n2)n2nccc2n1 | Mtb glucose medium: 53.81%; Mtb cholesterol medium: 53.98%
* Cc1ccccc1OCCN(C)Cc1noc(CC(C)C)n1 | Mtb glucose medium: 50.71%
* CN(C)S(=O)(=O)NC(=O)CC(c1ccccc1)C(F)(F)F (stereo not shown) | Mtb glucose medium: -27.21%; Mtb cholesterol medium: -19.05%
* Cc1c(CN2CC[C@@H](N3CCC(O)CC3)[C@H](O)C2)[nH]c2ccc(Cl)cc12 | Mtb glucose medium: 40.64%
* COC(=O)c1ccc(CN(C(C)C)C(C)C)o1.Cl | Mtb glucose medium: -8.134% & -5.146%; Mtb cholesterol medium: -7.586%
* COc1ccc(C)cc1CN1CCC(c2cc3ncccc3cn2)CC1.Cl | Mtb glucose medium: 103.8%; Mtb cholesterol medium: 104.2%
* Cc1ccc(-n2ncc3c2CCCC3N)cc1C (stereo not shown) | Mtb glucose medium: 22.83%
* Cc1noc(CCCC(=O)NC(C)c2ccc(Cl)s2)n1 (stereo not shown) | Mtb glucose medium: 50.24%
* CC(=O)N1CCC(C(=O)c2cc(C)cnc2N)CC1 | Mtb glucose medium: 6.472%; Mtb cholesterol medium: -8.828%
* COc1ccc(C)cc1CN1CCn2cccc2C1C (stereo not shown) | Mtb glucose medium: 51.79%
* Cc1nnc(CN(C)CCOc2cccc(Cl)c2)o1 | Mtb glucose medium: 15.49%
* CCNc1ccnc(N2Cc3cnn(Cc4ccc(F)cc4)c3C2)n1 | Mtb cholesterol medium: 50.87% & 25.86%
* COCc1nc(N(C)C)ncc1C(=O)Nc1cc(C)cc(C)c1 | Mtb glucose medium: 54.52%
* COc1ccc(CN2CCOC[C@H](OCCC(C)C)C2)cc1 | Mtb glucose medium: 15.73% & 57.31%
* CCN1CCC2(CC1)CC(NC(=O)c1csnn1)c1ccccc1O2.O=C(O)C(F)(F)F (stereo not shown) | Mtb glucose medium: 50.66%
* COc1ccc(NC(C)=O)cc1OCc1cccnc1 | Mtb glucose medium: 4.636%; Mtb cholesterol medium: -31.93%
* Cl.NC(CC1CCCCC1)c1ccccc1 (stereo not shown) | Mtb glucose medium: -10.08%; Mtb cholesterol medium: -6.834%
* COc1ccc(CNC(Cc2cccs2)c2nc(C)c(C)s2)cc1OC.Cl (stereo not shown) | Mtb glucose medium: 13.95%
* CC(C)NC(=O)NC(C)c1nc(-c2ccccc2)cs1 (stereo not shown) | Mtb cholesterol medium: -4.727%
* c1nc(-c2nc(C3CCOC3)no2)cs1 (stereo not shown) | Mtb cholesterol medium: -25.43% & -6.622%
* CC(C)CCN1CCNC(=O)C1CC(=O)NCCc1cc(O)ncn1 (stereo not shown) | Mtb glucose medium: 77.43% & 0.4058%
* CS(=O)(=O)Nc1ccn(Cc2ccc(F)cc2Cl)n1 | Mtb cholesterol medium: 16.48%
* Cc1noc(C)c1CN(C)CCc1nc(-c2cccc(Cl)c2)no1 | Mtb glucose medium: 30.62% & 35.95%; Mtb cholesterol medium: 15.43%
* CC(C)(O)CNc1ccc(C#N)c(C(F)(F)F)c1 | Mtb glucose medium: 0.5897%
* Cc1[nH]ncc1CCCNC(=O)Nc1ccc2c(c1)OC1(CCCC1)O2 | Mtb glucose medium: 9.751% & 34.17%
* OCCN1CCC(F)(F)C2(CCN(c3cccnc3)C2)C1 (stereo not shown) | Mtb glucose medium: -25.35%; Mtb cholesterol medium: 2.149%
* COc1ccc(-c2noc(CN3CC(n4cc(C)cn4)C3)n2)cc1 | Mtb glucose medium: 46.07%; Mtb cholesterol medium: 38.92%
* COCC(=O)N1CCCC1c1cccc(Cc2ccccc2F)n1 (stereo not shown) | Mtb glucose medium: -1.744%

For reference, 2 entries once more:

* COCc1nc(N(C)C)ncc1C(=O)Nc1cc(C)cc(C)c1 | Mtb glucose medium: 54.52%
* Cc1ccc(-n2ncc3c2CCCC3N)cc1C (stereo not shown) | Mtb glucose medium: 22.83%